Results of unrelated studies side by side (data: NIAID ChemDB).

All rows: cytotoxicity tests; cell line: VERO; measure: CC50

Two numbers with a dash give a range or band. CCn is the concentration with n% toxicity to the cells. An empty or dashed field is not shown. Neighbouring rows are from separate reports.

smiles,read by,value
O=c1[nH]c(=O)n([C@H]2C[C@H](O)[C@@H](CO)S2)cc1[N+](=O)[O-],-,476 µM
O=C1NC2OC(c3cc4cccc5c6cccc7cccc(c(c3)c45)c76)=CC2=CN1[C@H]1C[C@H](O)[C@@H](CO)O1,MTT,>20 µM
Nc1ccn([C@@H]2O[C@H](CO)C=C2F)c(=O)n1,-,>100 µM
CCc1c(O)c2c(c(O)c1OC)C(=O)C(OC)CC2,-,11.4 µg/mL
NNc1ccc2cccc(O)c2n1,-,4.18 µg/mL
COC1=CC(=O)c2c(cc(OC)c(C(C)C3=C(O)c4c(cc(O)c(C(C)=O)c4O)C(=O)C3=O)c2O)C1=O,-,5.98 µg/mL
Cc1cc(NS(=O)(=O)c2ccc(NC(NC(=O)C(C(F)(F)F)C(F)(F)F)(C(F)(F)F)C(F)(F)F)cc2)no1,-,283 µg/mL
O=c1[nH]c(=O)n([C@H]2C[C@H](O)[C@@H](CO)S2)cc1I,-,>100 µM
Nc1c(-c2c(Cl)cccc2Cl)[n+]([O-])c2ccccc2[n+]1[O-],-,4.69 µg/mL
Nc1ccn([C@@H]2C[C@@H](F)[C@H](CO)O2)c(=O)n1,-,>100 µM
O=C1CC[C@H](O)c2cccc(O)c21,-,41.84 µg/mL
N=C1C=C(N)C(=O)c2[nH]c(=O)ccc21,-,0.38 µg/mL
CCc1nc2ccc(Cl)cn2c1C(=O)NCc1ccc(N2CCN(c3ccc(S(F)(F)(F)(F)F)cc3)CC2)cc1,-,>32 µM
O=C(NC(=O)Nc1ccc(Cl)cc1)NC(=O)c1ccccc1F,-,>50 µg/mL
Cc1ccc2nc(C)c(C(=O)NCc3ccc(C(F)(F)F)cc3)n2c1,-,>32 µM
O=c1[nH]c(=O)n([C@@H]2O[C@H](CO)[C@@H](O)[C@H]2O)cc1-n1cc(-c2cc3cccc4c5cccc6cccc(c(c2)c34)c65)nn1,MTT,>20 µM
Cc1ccn2c(C(=O)NCc3ccc(NCCN4CCOCC4)c(F)c3)c(C)nc2c1,-,>32 µM
Cc1csc(N=Nc2ccc(N(C)C)cc2)[n+]1[O-],-,>10 µg/mL
CCc1nc2ccc(Cl)cn2c1C(=O)NCc1ccc(N2CCS(=O)CC2)cc1,-,>32 µM
O=c1[nH]c(=O)n([C@H]2C[C@H](O)[C@@H](CO)O2)cc1C#CC#Cc1ccc2c3cccc4cccc(c5cccc1c52)c43,MTT,>20 µM
O=c1[nH]c(=O)n([C@H]2C[C@H](O)[C@@H](CO)S2)cc1CCF,-,>500 µM
Cc1cc(NCCCCCCCCNc2cc(C)nc3cc(N(C)C)ccc23)c2ccc(N(C)C)cc2n1,-,3.3 µg/mL
O=c1[nH]c(=O)n([C@H]2C[C@H](O)[C@@H](CO)S2)cc1C1CC1,-,>500 µM
Nc1ccn([C@@H]2S[C@H](CO)C=C2F)c(=O)n1,-,>100 µM
C=CCCCCn1c2ccccc2c2c(C)c3c[n+](C)ccc3c(C)c21,-,5 µg/mL
Cc1ccn2c(C(=O)NCc3ccc(Oc4cccc(C(F)(F)F)c4)cc3)c(C)nc2c1,-,>32 µM
CN(C)c1ccc2nc3ccc(=O)cc-3sc2c1,-,0.98 µg/mL
COC1=CC(=O)c2c(cc(OC)c(C(C)C3=C(O)c4c(O)cc(O)cc4C(=O)C3=O)c2O)C1=O,-,4.38 µg/mL
Nc1nc(=O)n([C@H]2C[C@H](O)[C@@H](CO)O2)cc1C#Cc1ccc2c3cccc4cccc(c5cccc1c52)c43,MTT,>20 µM
CC(=O)Oc1c(C)c(O)c(C(C)=O)c2c1C1(C)C(=O)C(C(C)=O)=C(O)C=C1O2,-,7.2 µg/mL
Cc1ccn2c(C(=O)NCc3ccc4c(c3)CCO4)c(C(F)(F)F)nc2c1,-,>32 µM
O=c1[nH]c(=O)n([C@@H]2O[C@H](CO)[C@@H](O)[C@@H]2O)cc1C#CC#Cc1ccc2c3cccc4cccc(c5cccc1c52)c43,MTT,>20 µM
Nc1ncnc2c1ncn2[C@@H]1C[C@@H](F)[C@H](CO)O1,-,>100 µM
CO[C@H]1/C=C/O[C@@]2(C)Oc3c(C)c(O)c4c(O)c(c5c(c4c3C2=O)NC2(CCN(Cc3ccccc3)CC2)N=5)=NC(=O)/C(C)=C\C=C\[C@H](C)[C@H](O)[C@@H](C)[C@@H](O)[C@@H](C)[C@H](OC(C)=O)[C@@H]1C,-,0.07 µg/mL
CCc1nc2cc(C)ccn2c1C(=O)NCc1ccc2c(c1)CCO2,-,>32 µM
CCN(CC)C(=S)S.CCNCC,-,4.3 µg/mL
CCc1nc2sc(C)cn2c1C(=O)NCc1ccc(S(F)(F)(F)(F)F)cc1,-,>32 µM
C/C(=N\NC(=S)NO)c1ccc([N+](=O)[O-])cc1,-,>146 µM
COC1/C=C\C=C(/C)C(=O)Nc2cc3nc4cccc(Br)c4oc-3c(c2=O)CC(C)CC(OC)C(O)C(C)/C=C(\C)C1OC(N)=O,-,>10 µg/mL
O=C(Cn1cc(C#Cc2ccc3c4cccc5cccc(c6cccc2c63)c54)c(=O)[nH]c1=O)NCCCCO,MTT,2–6 µM
Nc1ccn([C@H]2C=C(F)[C@@H](CO)O2)c(=O)n1,-,>100 µM
O=C1C=C(Nc2ccccc2C(=O)CC(=O)C(=O)Nc2ccc(Cl)c(Cl)c2)c2ccccc2C1=O,-,9.48 µg/mL
CC(O)c1cn([C@H]2C[C@H](O)[C@@H](CO)S2)c(=O)[nH]c1=O,-,>500 µM
CC(C)(C)C(=O)OCn1c(=O)c(C#Cc2ccc3c4cccc5cccc(c6cccc2c63)c54)cn(CC(=O)O)c1=O,MTT,>20 µM
CSC(=S)N/N=C(/C)Cc1ccccn1,-,5.1 µg/mL

6 of the rows above, restated:

smiles	read by	value
O=c1[nH]c(=O)n([C@H]2C[C@H](O)[C@@H](CO)S2)cc1I	-	>100 µM
CCc1nc2sc(C)cn2c1C(=O)NCc1ccc(S(F)(F)(F)(F)F)cc1	-	>32 µM
CCc1c(O)c2c(c(O)c1OC)C(=O)C(OC)CC2	-	11.4 µg/mL
C/C(=N\NC(=S)NO)c1ccc([N+](=O)[O-])cc1	-	>146 µM
Nc1ccn([C@H]2C=C(F)[C@@H](CO)O2)c(=O)n1	-	>100 µM
COC1=CC(=O)c2c(cc(OC)c(C(C)C3=C(O)c4c(cc(O)c(C(C)=O)c4O)C(=O)C3=O)c2O)C1=O	-	5.98 µg/mL